Amino acid sequences for entries named in this document (tags omitted). A change or cut given only in a name is not applied to a line headed by its entry.
UniProt Q82506: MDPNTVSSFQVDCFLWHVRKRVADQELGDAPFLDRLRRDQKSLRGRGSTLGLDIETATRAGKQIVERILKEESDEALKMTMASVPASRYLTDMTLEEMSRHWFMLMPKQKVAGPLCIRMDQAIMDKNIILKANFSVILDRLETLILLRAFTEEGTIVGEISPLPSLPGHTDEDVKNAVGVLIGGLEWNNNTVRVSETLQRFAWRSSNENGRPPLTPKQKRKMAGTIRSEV

According to patent publication US20170130229:

Target: NS1 (WSN) (Influenza A virus A/WSN/1/33 (H1N1)) (UniProt Q82506)
Experiment: pull-down
Conditions: protein in cells

“GUCAGCAGUGCCUUAGCAGCACGUAAAUAUUGGCGUUAAGAUUCUAAAAUUAUCUCCAGUAUUAACUGUGCUGCUGAAGUAAGGUUGAC [pre-miR-16]”: binds.

For at least one entry, the source does not settle the construct or the ends of the probe. At least one result comes from cells or an extract, where the contact may be indirect.
